Consider one compound from PMC8906008 (Antiviral Research, 2022).

The test relates to SARS-CoV-2 nsp4-5-6 C145A. The test is classed as cell-based.

Take `Cc1sc2c(c1C)C(c1ccc(Cl)cc1)=N[C@@H](CC(=O)NCCCCCCCCNC(=O)COc1cccc3c1C(=O)N(C1CCC(=O)NC1=O)C3=O)c1nnc(C)n1-2` (stereo partly shown) [Compound #2, dBET6]: the “Secondary screen nsp5-CA RLU (%)” value is 233.3 ± 6.6%.
